In this series the test system is PHA-activated primary human PBMCs. Briefly: Toxicity, MTT viability assay. As to conditions: HIV-1 infected primary T cells; EC50 vs 72 hour MTT, FIG. 4. On the technique in general: Tetrazolium assays rely on reduction of a dye to a coloured formazan, in cell work by metabolically active cells.

Consider `C/C=C/[C@H]1O[C@@](O)([C@@H](C)[C@H](O)[C@H](C)[C@H]2OC(=O)/C(OC)=C/C(C)=C/[C@@H](C)[C@@H](O)[C@@H](CC)[C@@H](O)[C@H](C)C/C(C)=C/C=C/[C@@H]2OC)C[C@@H](O[C@H]2C[C@@H](O)[C@H](OC(N)=O)[C@@H](C)O2)[C@@H]1C` [CMA, Concanamycin A], for which the “therapeutic window between effective and toxic doses” value is “> five and five”.

The values above are taken from patent US20240067634A1, “INHIBITORS OF NEF DOWNMODULATION” (priority 2020, published 2024).
